Measured values from several laboratories, pooled; numbers as filed in NIAID ChemDB.

Common to all: tests in culture; organism: Human cytomegalovirus; cells: HFF; read-out: EC50

Blank or dashed fields: not listed here. ECn is the concentration giving n% inhibition of infection, replication or growth. Conditions beyond the fields shown may differ between rows.

structure	strain or isolate	method	result
OC[C@H]1O[C@@H](n2c(Br)nc3cc(Cl)c(Cl)cc32)[C@H](O)[C@@H]1O	D-10 C4 (BDCRB-resistant)	plaque count	>10 µg/mL
Nc1nc2c(ncn2/C=C2/CC2(CO)CO)c(=O)[nH]1	Toledo	plaque count	1.3 µM
CC(C)Oc1ccccc1CNC(=O)c1ccc2cnccc2n1	4760RECPOLA1-1-1	plaque count	0.04 µM
CNc1cc2c(=O)c(C(=O)O)cn(N(C)C)c2cc1N1CCN(c2ccccn2)CC1	AD169	plaque count	10.3 µM
CCCCCCCCCCCCCCCCCOC[C@H](COP1(=O)CO[C@@H](Cn2ccc(N)nc2=O)CO1)OCc1ccccc1	AD169	plaque count	0.01 µM
Nc1nc2ncn(/C=C3\C(F)C3(CO)CO)c2c(=O)[nH]1	TOWNE	cytopathic effect	>100 µM
CCCCCCCCCCCCCCCCOCCCOP1(=O)CO[C@@H](Cn2ccc(N)nc2=O)CO1	AD169	plaque count	0.0427 µM
Nc1nc2c(ncn2COC(CO)CO)c(=O)[nH]1	C8706/13-1-1 (drug-resistant)	plaque count	22 µM
Nc1ncnc2c1ncn2C=C1CC1CO	AD169	plaque count	1.3 µM
Cn1cc(C(=O)NCc2ccc(Cl)cc2)c(=O)c2cc(CN3CCOCC3)ccc21	DAVIS	virus yield	0.8 µM
CCCSc1nc(N)nc2c1ncn2/C=C1/C[C@@H]1CO	AD169	plaque count	3 µM
Nc1nc2c(ncn2C=C2CC2CO)c(=O)[nH]1	C9208/5-4-2	plaque count	9.4 µM
Nc1nc2c(ncn2COC(CO)CO)c(=O)[nH]1	TOWNE	virus yield	<4 µM
Nc1nc2c(ncn2COC(CO)CO)c(=O)[nH]1	CLEGG	plaque count	1 µM
O=C(O)P(=O)(O)O	Isolate Helebrand (wild type)	plaque count	94.77 µM
Nc1ccn([C@@H]2C[C@](O)(CO)CO2)c(=O)n1	AD169		>100 µM
CCCCCCCCCCCCCCCCCCCCOCCCOP(=O)(O)CO[C@H](CO)Cn1ccc(N)nc1=O	AD169	plaque count	0.034 µM
O=c1ccn([C@H]2C[C@](O)(CO)CO2)c(=O)[nH]1	AD169		>100 µM
Nc1nc(NC2CC2)c2ncn(C=C3CC3CO)c2n1	DAVIS	plaque count	2.2 µM
CCCCCCCCCCCCCCCCOP1(=O)CO[C@@H](Cn2ccc(N)nc2=O)CO1	AD169	plaque count	0.038 µM
OC[C@H]1O[C@@H](n2c(Br)nc3cc(Cl)c(Cl)cc32)[C@H](O)[C@@H]1O	TOWNE	virus yield	<0.41 µM
Nc1ccn(C[C@@H](CO)OCP(=O)(O)O)c(=O)n1	759rD100	plaque count	3.2 µM
Cc1nc(-c2ncn([C@@H]3O[C@H](CO)[C@@H](O)[C@H]3O)c2C(N)=O)no1		plaque count	>100 µM
CCCCCCCCCCCCOCCCOP(=O)(O)CO[C@H](CO)Cn1ccc(N)nc1=O	1117-R	plaque count	0.06 µM
CC1(C)OCC2(CO[C@@H](n3ccc(NC(=O)c4ccccc4)nc3=O)C2)O1	AD169		>100 µM
CNc1cc2c(=O)c(C(=O)O)cn(C)c2cc1N1CCN(c2ccccn2)CC1	AD169	plaque count	1.1 µM
CCCCCCCC/C=C\CCCCCCCCOCCOP(=O)(O)CO[C@H](CO)Cn1ccc(N)nc1=O	AD169	plaque count	0.001 µM
O=C(O)c1cn(C2CC2)c2nc(N3CCN(c4ccccn4)CC3)ccc2c1=O	AD169	plaque count	2.3 µM
O[C@@H]1[C@H](O)CO[C@H]1n1c(Cl)nc2cc(Cl)c(Cl)cc21	C4 (BDCRB- maribavir-resistant)	plaque count	25 µM
CN(C)c1cc2c(=O)c(C(=O)O)cn(C)c2cc1N1CCN(c2ccccn2)CC1	AD169	plaque count	16 µM
C=CCOc1nc(N)nc2c1ncn2/C=C1/C[C@@H]1CO	TOWNE	plaque count	1.2 µM
Cn1cc(C(=O)NCc2ccc(Cl)cc2)c(=O)c2cc(CN3CCOCC3)ccc21	GR	plaque count	0.7 µM
CCCCCCCC/C=C\CCCCCCCOCCCOP(=O)(O)CO[C@H](CO)Cn1ccc(N)nc1=O	C8914-6	plaque count	0.03 µM
O[C@@H]1[C@H](O)[C@H](O)CO[C@H]1n1c(Br)nc2cc(Cl)c(Cl)cc21	EC	plaque count	3.8 µM
OC[C@H]1O[C@@H](n2c(Br)nc3cc(Cl)c(Cl)cc32)[C@H](O)[C@@H]1O	D10 (BDCRB-resistant)	plaque count	20.3 µM
Nc1nc2c(ncn2COC(CO)CO)c(=O)[nH]1	DAVIS	plaque count	0.9 µM
CC(C)Nc1nc(N)nc2c1ncn2/C=C1/C[C@@H]1CO	AD169	plaque count	>365 µM
CN(C)c1cccc2c(S(=O)(=O)Nc3ccc(NC(=O)C(C)(C)CO)cc3)cccc12	Isolate Helebrand (resistant)	plaque count	36.32 µM
CCCCCCCCCCCCCCCCCCCCCCCCOP1(=O)CO[C@@H](Cn2ccc(N)nc2=O)CO1	AD169	plaque count	0.29 µM
Cn1cc(C(=O)NCc2ccc(Cl)cc2)c(=O)c2cc(CN3CCOCC3)ccc21	DAVIS	plaque count	5.5 µM
O=C(O)P(=O)(O)O	AD169	plaque count	29 µg/mL
C[C@H]1O[C@@H](n2c(Cl)nc3cc(Cl)c(Cl)cc32)[C@H](O)C1O	Isolate B11 mutation D344E	plaque count	2.9 µM
COc1ccccc1CNC(=O)C1=Cc2ccncc2CC1	TOWNE	virus yield	>28.2 µM
CCCCCOc1nc(N)nc2c1ncn2/C=C1/C[C@@H]1CO	AD169	plaque count	1.4 µM
CCCCCCCCCCCCCCOCCCOP(=O)(O)CO[C@H](CO)Cn1ccc(N)nc1=O	AD169	plaque count	0.002 µM
CC1(C)OCC(CO)(CC(O)CO)O1	AD169		>100 µM
O=C(NCc1ccc(Cl)cc1)c1cn2c3c(cc(CN4CCOCC4)cc3c1=O)OC(c1cccnc1)C2	AD169	plaque count	5.8 µM
O=C(NCCc1ccccc1)C1=Cc2ccncc2CC1	1117R73-1-2	plaque count	0.3 µM
CC(C)Nc1nc2cc(Cl)c(Cl)cc2n1[C@H]1O[C@@H](CO)[C@H](O)[C@@H]1O	D10 (BDCRB-resistant)	plaque count	72 µM
OC[C@H]1O[C@@H](n2c(Br)nc3cc(Cl)c(Cl)cc32)[C@H](O)[C@@H]1O	C9208/3-3-1	plaque count	0.8 µM
Nc1ccn(C[C@@H](CO)OCP(=O)(O)O)c(=O)n1	Isolate Helebrand (resistant)	plaque count	0.6 µM

5 of the rows above, restated:

structure | strain or isolate | method | result
Nc1nc2c(ncn2COC(CO)CO)c(=O)[nH]1 | DAVIS | plaque count | 0.9 µM
CC(C)Oc1ccccc1CNC(=O)c1ccc2cnccc2n1 | 4760RECPOLA1-1-1 | plaque count | 0.04 µM
Nc1ccn(C[C@@H](CO)OCP(=O)(O)O)c(=O)n1 | Isolate Helebrand (resistant) | plaque count | 0.6 µM
OC[C@H]1O[C@@H](n2c(Br)nc3cc(Cl)c(Cl)cc32)[C@H](O)[C@@H]1O | TOWNE | virus yield | <0.41 µM
CC(C)Nc1nc(N)nc2c1ncn2/C=C1/C[C@@H]1CO | AD169 | plaque count | >365 µM